Results deposited as PubChem BioAssay AID624099 (ICCB-Longwood, 2012)
Test: 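Host factors E2 relies on to silence an HPV18 LCR reporter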 (primary screen). Cells: human C33A cervical carcinoma cells (HPV-negative) stably expressing BPV1 E2 and an HPV18 LCR luciferase reporter. Knock-down reagent: siRNA pool against human genes, 40 nM. Duration: 72 h. Measured: 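Per-well luciferase luminescence, z-scored on each plate against the plate mean and SD with control wells left out, then averaged across three replicate plates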. Direction: mean z-score and z-score: higher = stronger reporter signal, weaker E2 silencing. Call rule: 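Mean z ≥ 2 together with z ≥ 2 in two or more of the three replicates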.
Here is one part, drawn at random, of about 21,000 reagents. 497 of all reagents (2.4%) count as active. 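Higher z means weaker E2 silencing; only reporter increases were scored, and knock-downs that hurt cell survival may mask genuine repressor factors.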 Entries without a mark were called inactive. The numbers tell different reagents against one gene apart.

target	reagent no.	mean z-score	z-score, replicate A	z-score, replicate B	z-score, replicate C
OR2K2	1	-1.17	-1.16	-1.27	-1.08
STARD3NL	1	-0.24	-0.42	-0.2	-0.1
EP400P1	1	4.53 (active)	4.77	4.54	4.28
GSTA4	1	0.21	-0.07	0.34	0.35
ADAMTS17	1	-1.09	-0.65	-1.15	-1.46
LLPH	1	-1.17	-1.1	-1.21	-1.2
ADAM8	1	-1.03	-0.89	-1.03	-1.17
EQTN	1	-1.47	-1.67	-1.53	-1.22
RAB11B	1	-1	-1.06	-1.12	-0.84
RIC8A	1	1.79	1.6	2.02	1.76
CDKN3	1	-1.55	-1.33	-1.71	-1.6
PPP1R27	1	0.18	-0.03	0.37	0.21
STEEP1	1	-0.23	0.19	-0.44	-0.43
C1orf220	1	-0.34	-0.38	-0.13	-0.51
KCNQ5	1	-0.56	-0.72	-0.44	-0.5
LOC387761 (retired record)	1	-0.93	-0.79	-0.85	-1.14
BGN	1	0.38	0.37	0.51	0.26
EMCN	1	-0.01	0.33	-0.04	-0.32
HHIPL1	1	0.58	0.75	1.11	-0.11
SURF4	1	-0.49	-0.39	-0.77	-0.32
NXT1	1	-0.99	-1.04	-0.97	-0.94
ZNF649	1	-0.79	-0.53	-1.01	-0.83
NCDN	1	-1.77	-1.83	-1.86	-1.62
CRYBB1	1	-0.34	-0.37	-0.18	-0.47
SLC35A4	1	-0.93	-0.81	-0.86	-1.12
HERC6	1	-0.21	-0.21	-0.04	-0.39
SIGLEC17P	1	-0.39	-0.38	-0.15	-0.66
TEKT4	1	-1.21	-1.16	-1.12	-1.35
UTY	1	-1.13	-1.18	-1.14	-1.07
KRTAP4-5	1	1.44	0.98	1.82	1.52
PFN3	1	0.18	0.17	0	0.37
SERBP1	1	0.3	0.44	0.2	0.25
CDK10	1	-1.22	-1.13	-1.42	-1.11
TBC1D16	1	-0.69	-0.65	-0.8	-0.61
MTURN	1	1.12	1.21	1.25	0.9
DAZAP2	1	0.35	0.56	0.4	0.09
LOC390550 (retired record)	1	0.39	0.55	0.2	0.4
HEXD	1	-0.21		-0.16	-0.26
MGAT4D	1	-0.07	-0.08	0.08	-0.21
RHOV	1	0.29	0.18	0.31	0.38
MOSPD3	1	0.22	0.39	0.13	0.13
SNTG1	1	-1	-0.88	-0.99	-1.13
CCNI	1	0.03	-0.04	0.05	0.06
CCT2	1	1	1.01	0.66	1.33
CA8	1	-0.39	0.29	-1.33	-0.13
MALL	1	-0.26	-0.03	-0.5	
YIPF4	1	0.01	-0.18	0.14	0.08
BMP2	1	1.46	1.2	1.45	1.72
UBP1	1	-0.15	-0.26	-0.05	-0.13
NUPR1	1	3.89 (active)	3.97	3.5	4.2
SCGB2B2	1	-0.92	-0.74	-1.19	-0.84
SIGLEC9	1	-0.83	-0.65	-0.71	-1.13
TPT1P4	1	-0.21	-0.06	-0.32	-0.24
OR1L3	1	-0.75	-0.96	-0.63	-0.66
LINC02914	1	-0.99	-1.09	-0.73	-1.16
JPH2	1	-1.27	-1.11	-1.52	-1.19
AKIP1	1	0.04	0.12	-0.31	0.3
AMY2B	1	-0.2	-0.36	0.03	-0.26
TMEM256	1	-1.54	-1.47	-1.7	-1.44
PCDHB4	1	1.28	1.04	1.56	1.24
C20orf144	1	0.1	-0.08	-0.42	0.8
BASP1-AS1	1	0.3	0.48	-0.05	0.46
BACE1	1	-0.47	-0.43	-0.47	-0.52
KCNK5	1	-1.34	-1.28	-1.37	-1.36
WNK3	1	0.58	0.49	0.52	0.72
FOXN3-AS1	1	-1.05	-0.26	-1.73	-1.15
PLB1	1	-1.81	-1.55	-2.22	-1.66
PLB1	2	0.1	0.08	0.08	0.14
LSM3	1	-0.99	-1.24	-1.23	-0.51
ZSCAN9	1	0.23	0.09	0.37	0.25
SEMG1	1	-0.17	-0.35	-0.09	-0.08
PLBD1	1	0.8	1.05	0.99	0.37
LRTM1	1	1.2	1.89	1.18	0.52

Reagents listed above called active:
target	reagent no.	mean z-score	z-score, replicate A	z-score, replicate B	z-score, replicate C
EP400P1	1	4.53 (active)	4.77	4.54	4.28
NUPR1	1	3.89 (active)	3.97	3.5	4.2
